For one substance, stoichiometry N results are on record in paper PMC11472052, “Structural basis for difunctional mechanism of m-AMSA against African swine fever virus pP1192R” (2024).

This assay concerns the target African swine fever virus (ASFV) type II topoisomerase pP1192R, full-length (African swine fever virus (ASFV)) (UniProt Q00942). As to the kind of experiment: SEC + AUC.

What is called stoichiometry N is the number of molecules, sites or subunits per partner or assembly.

With “African swine fever virus (ASFV) type II topoisomerase pP1192R, full-length (from UniProt Q00942 1-1192) (enzyme)”, the stoichiometry N came to 2.
